tested on: TZM-bl and HL2/3 cells; details: cytotoxicity under conditions similar to cell-cell fusion

Substance | CC50 [µM]
[Phe]-Trp | > 50
[Trp]-Trp | > 50
[Trp]-Phe | > 50

From article PMC3777804 (Journal of computer-aided molecular design, 2013)
